Reference: publication PMC6753678, “Fueling Open Innovation for Malaria Transmission-Blocking Drugs: Hundreds of Molecules Targeting Early Parasite Mosquito Stages” (Frontiers in Microbiology, 2019)

Tests used:
[1] = system: P. falciparum female gametocytes; assay: P. falciparum female gametogenesis assay (Pf FGAA)
[2] = system: P. falciparum late stage (stages IV-V) gametocytes; assay: P. falciparum late stage gametocyte ATP depletion assay (Pf GC-ATP)
[3] = unified cytotox / IC50, <10-fold red, >10-fold green
[4] = unified cytotox over Pf FGAA IC50, red: <10-fold selectivity, green: >10-fold
[5] = unified cytotox over Pf GC-ATP IC50, red: <10-fold selectivity, green: >10-fold
[6] = unified cytotox / Pf GC-ATP IC50, red: <10-fold selectivity, green: >10-fold

SMILES	Assay tox ratio Pf FGAA [1, 4]	Assay tox ratio Pf GC-ATP [2, 5]	also measured
COc1ccc2ccccc2c1CNCCCCCCNCc1c(OC)ccc2ccccc12.Cl [TCMDC-137915]			Assay tox ratio Pf FGAA [1, 3]: 5.54; Assay tox ratio Pf GC-ATP [2, 3]: 15.41
Fc1ccc(OC2CN(c3nccc(NCc4ccccc4Cl)n3)C2)cc1 [TCMDC-135110]	15.99	33.20	
COc1ccc(OC)c(-c2cccc(-c3cccc(NC(=O)c4ccc([N+](=O)[O-])o4)c3)n2)c1 [TCMDC-124799]	5.08	6.27	
Nc1nc(N)c2c(ccc3c2ccn3Cc2ccc(-c3ccccc3)cc2)n1 [TCMDC-137813]	0.68	0.95	
CCCCN(CCCC)/C(=N/C(=N)NCc1ccc(Cl)c(Cl)c1)NCCCCCCN/C(=N\C(=N)NCc1ccc(Cl)c(Cl)c1)N(CCCC)CCCC [TCMDC-131821]	5.24	21.43	
Cl.c1ccc2c(NCCCCCCCCNc3ccnc4ccccc34)ccnc2c1 [TCMDC-137751]	2.40	2.26	
CCCCCCCCN1CCN(CCCCCCNc2c3ccccc3nc3ccccc23)CC1.Cl [TCMDC-138015]	5.06	12.90	
COc1ccc(CNCCCCCCNCc2ccc(OC)c3ccccc23)c2ccccc12.Cl [TCMDC-137631]	3.37	4.83	
CS(=O)(=O)O.FC(F)(F)COc1ccc2ccccc2c1CNCCCCCCNCc1c(OCC(F)(F)F)ccc2ccccc12 [TCMDC-137816]	2.25	6.60	
Cc1c(Cl)cccc1N=C(S)NN=Cc1ccccn1 [TCMDC-125487]	3567.00	370.37	
CCN(CC)CCN(Cc1ccc(-c2ccc(C(F)(F)F)cc2)cc1)C(=O)Cn1cc(Cc2cnn(C)c2)c(=O)nc1/C=C/c1cccc(F)c1F [TCMDC-140964]	13.86	69.50	
COc1ccc(C[C@H](N)C(=O)N[C@H]2[C@@H](O)[C@H](n3cnc4c(N(C)C)ncnc43)O[C@@H]2CO)cc1 [TCMDC-123493]	8.24	4.22	
Br.CCCCc1ccc(CCNCCCCCCNCCc2ccc(O)c(O)c2)cc1 [TCMDC-131281]	2.99	11.76	
CC1CCCCN1CCCNc1nc(NCc2ccccc2)c2ccccc2n1 (centres unmarked) [TCMDC-137771]	2.39	123.90	
CC(C)(C)c1ccc(CN2CCC(CNC(=O)c3cc(-c4ccccc4C(F)(F)F)cs3)C2)cc1.O=C(O)C(F)(F)F (centres unmarked) [TCMDC-134441]	11.73	26.52	
CC(CCCCCC(=O)Nc1ccc(CC(C)NCCc2cccc(Cl)c2)cc1)NCCc1cccc(Cl)c1 (centres unmarked) [TCMDC-139800]	2.06	6.63	
Cl.N=C(NCCCCC1CCCCC1)c1cccc(C(=N)NCCCCC2CCCCC2)n1 [TCMDC-137452]	1.62	7.77	
COc1ccc(Nc2nccc(-c3ccc4ccnc(NCCCCN)c4c3)n2)cc1 [TCMDC-136642]	9.46	43.74	
CC(C)(C)c1ccc(-c2cc3c(ccc4nc(N)nc(N)c43)[nH]2)cc1 [TCMDC-137977]	3.33	4.66	
Cc1sc2ncnc(Sc3nnc(N)s3)c2c1C [TCMDC-124542]	47.05	121.03	
FC(F)(F)c1ccc2[nH]c(-c3ccc(-c4ccc(CNCCN5CCNCC5)cc4)s3)nc2c1.O=C(O)C(F)(F)F [TCMDC-132862]	3.30	7.70	
CN(C)CCNCc1ccc(-c2ccc3c(Nc4ccc(Oc5ccccc5)cc4)ccnc3c2)o1 [TCMDC-138399]	4.26	20.40	
COc1ccc(CCNCCCCCCNCCc2ccc(-c3ccccc3)cc2)cc1OC.Cl [TCMDC-131267]	4.04	29.33	
O=C(c1ccc([N+](=O)[O-])o1)N1CCC(Cc2ccc(C(F)(F)F)cc2)CC1 [TCMDC-124805]	132.59	80.18	
C#CCOc1ccc2ccccc2c1CNCCCCCCNCc1c(OCC#C)ccc2ccccc12.CS(=O)(=O)O [TCMDC-137838]	2.91	6.11	

SMILES	Assay tox ratio Pf FGAA [1, 4]	Assay tox ratio Pf GC-ATP [2, 5]	also measured
CS(=O)(=O)O.FC(F)(F)COc1ccc2ccccc2c1CCNCCCCNCCc1c(OCC(F)(F)F)ccc2ccccc12 [TCMDC-137317]	2.68	1.97	
CC(C)Oc1ccc2ccccc2c1CNCCCCCCNCc1c(OC(C)C)ccc2ccccc12.CS(=O)(=O)O [TCMDC-137965]	2.26	15.31	
N=C(/N=C(/NCCCCCCN/C(=N/C(=N)NCc1ccc(Cl)c(Cl)c1)N1CCCCC1)N1CCCCC1)NCc1ccc(Cl)c(Cl)c1 [TCMDC-131816]	16.52	118.29	
CCCCOc1ccc(CNCCCCCCNCc2ccc(OCCCC)c3ccccc23)c2ccccc12.CS(=O)(=O)O [TCMDC-137281]	6.62	0.95	
CN(CCCCN)Cc1ccc(-c2ccc(Cl)cc2)cc1 [TCMDC-140123]	2.39	9.12	
CC(C)c1ccc(CN2CCC(CNC(=O)c3cc(-c4cccc(F)c4)cs3)C2)cc1.O=C(O)C(F)(F)F (centres unmarked) [TCMDC-134437]	4.22	12.68	
COc1cc2nc(NCc3cccc(CNC(=O)c4ccc(-c5ccc(C(C)=O)cc5)cc4)c3)nc(N)c2cc1OC.O=C(O)C(F)(F)F [TCMDC-138177]	1.72	4.09	
CCCCCCCN1CC[C@@H](CCCc2ccnc3ccc(OCCN4CCNCC4)cc23)[C@@H](CC)C1.Cl [TCMDC-139817]	3.12	10.28	
COc1cc2nc(N3CCN(c4nc(N)c5cc(OC)c(OC)cc5n4)CC3)nc(N)c2cc1OC [TCMDC-123865]	89.78	201.90	
CC(=O)c1ccc2nc[nH]c(=O)c2c1 [TCMDC-138172]	3.82	9.35	
CCc1c(CCNCCCCCCNCCc2ccc([N+](=O)[O-])cc2)ccc(OC)c1OC.Cl [TCMDC-132066]	3.73	10.17	
Cc1cc(OCCN2CCCCC2)ccc1NC(=O)c1cccc2c(=O)n(Cc3ccc(Cl)cc3)cnc12 [TCMDC-136727]	3.17	4.68	
CCc1c(CCNCCCCCCNCCc2ccc(OC)c(OC)c2C)ccc(OC)c1OC.Cl [TCMDC-132051]			Assay tox ratio Pf GC-ATP [2, 6]: 10.06
CC(C)CNCc1ccc(-c2ccc(CN(CCCN3CCN(C)CC3)C(=O)CCC3CCCC3)cc2)cc1.O=C(O)C(F)(F)F [TCMDC-140559]			Assay tox ratio Pf GC-ATP [2, 6]: 9.98
CC(C)CNCc1ccc(-c2cccc(CN(CCN(C)C)C(=O)CCC3CCCC3)c2)cc1.O=C(O)C(F)(F)F [TCMDC-140553]			Assay tox ratio Pf GC-ATP [2, 6]: 10.19
COc1ccc2nc3cc(Cl)ccc3c(NCCN3CCN(C)CC3)c2c1 [TCMDC-137476]			Assay tox ratio Pf GC-ATP [2, 6]: 10.30
CCCCCCCN1CC[C@@H](CCCc2ccnc3ccc(OC)cc23)[C@@H](CCN)C1.O=C(O)C(=O)O [TCMDC-139278]			Assay tox ratio Pf GC-ATP [2, 6]: 11.18
CN1CCN(CCCN(Cc2ccc(-c3ccc(CNC4CCCC4)cc3)cc2)C(=O)CCC2CCCC2)CC1.O=C(O)C(F)(F)F [TCMDC-140560]			Assay tox ratio Pf GC-ATP [2, 6]: 11.21
O=C(O)C(F)(F)F.c1cc(CN2CCC(CCN3CCCCC3)CC2)cc(-c2cccc(-c3nc4ccccc4[nH]3)c2)c1 [TCMDC-133920]			Assay tox ratio Pf GC-ATP [2, 6]: 44.66
c1ccc(CSC2=NNC(c3ccccn3)S2)cc1 (centres unmarked) [TCMDC-123769]			Assay tox ratio Pf GC-ATP ([2]; unified cytotox / Pf GC-ATP IC50, <10-fold selectivity red, >10-fold green): 3.13
Cc1cccc2nc(-c3ccc(-c4cccc(CN5CCC(CCN6CCCCC6)CC5)c4)s3)[nH]c12.O=C(O)C(F)(F)F [TCMDC-133923]			Assay tox ratio Pf GC-ATP [2, 6]: 8.35
CCCCCCCN1CC[C@@H](CCCc2ccnc3ccc(OCCCCN/C(N)=N/O)cc23)[C@@H](CC)C1.O=C(O)C(=O)O [TCMDC-139839]			Assay tox ratio Pf GC-ATP [2, 6]: 36.34
COc1cc(NCC(C)CNCc2cn(Cc3ccccc3)c3ccccc23)nc2ccccc12 (centres unmarked) [TCMDC-140496]			Assay tox ratio Pf GC-ATP [2, 6]: 2.92
Cl.NCCCOc1cnc(-c2ccccc2)c2nc(-c3nonc3N)n(CCc3ccccc3)c12 [TCMDC-136216]			Assay tox ratio Pf GC-ATP [2, 6]: 4.01
